Measured values from several laboratories, pooled; numbers as filed in NIAID ChemDB.

Common to all: whole-cell or culture tests; species: Influenza B virus; cell line: MDCK; read-out: EC50

Lines come from different laboratories, so protocols vary.

CN1CCCCCC1C12CC3CC(CC(C3)C1)C2 ; read by: cytopathic effect ; result: >35 µM
CC(=O)N[C@H]1[C@H]([C@H](O)[C@H](O)CO)OC(C(=O)O)=C[C@@H]1N ; strain or isolate: B/Victoria/102/85 ; read by: plaque count ; result: 0.065 µM
Nc1ncnc2c1ncn2[C@@H]1C[C@@H](O)[C@H](CO)O1 ; result: >100 µM
C1CCNC(C23CC4CC(CC(C4)C2)C3)CC1 ; read by: cytopathic effect ; result: >186 µM
NC(=O)c1ncn([C@@H]2O[C@H](CO)[C@@H](O)[C@H]2O)n1 ; strain or isolate: Singapore ; read by: cytopathic effect ; result: 9 µg/mL
Clc1ccc(-c2csc(N3N=C(c4cccs4)CC3c3ccc(Cl)cc3)n2)cc1 ; strain or isolate: Singapore/22/79 ; read by: cytopathic effect ; result: >200 µg/mL
C[C@H]1C[C@@H](n2cnc3c(N)ncnc32)[C@H](O)[C@@H]1O ; strain or isolate: Singapore ; read by: cytopathic effect ; result: >100 µg/mL
Nc1nccc2c1ncn2[C@@H]1C[C@H](CO)[C@@H](O)[C@H]1O ; read by: cytopathic effect ; result: >16 µg/mL
CC(C)CCCC(C)C1CCC2C3CC=C4CC(OC(=O)Nc5ccc(S(=O)(=O)O)c6cccc(S(=O)(=O)O)c56)CCC4(C)C3CCC12C ; strain or isolate: Singapore/222/79 ; read by: cytopathic effect ; result: >200 µM
CN1CCCCC1C12CC3CC(CC(C3)C1)C2 ; read by: cytopathic effect ; result: >928 µM
NC12CC3CC(CC(C3)C1)C2 ; strain or isolate: B/LEE/40 ; read by: cytopathic effect ; result: >320 µg/mL
c1ccc(CN2CCCCC2C23CC4CC(CC(C4)C2)C3)cc1 ; read by: cytopathic effect ; result: >724 µM
O=C(NCCc1c[nH]c2ccccc12)C1=Cc2ccncc2CC1 ; read by: cytopathic effect ; result: 23 µM
CC(N)C12CC3CC(CC(C3)C1)C2 ; strain or isolate: B/Victoria/102/85 ; result: >25 µM
C1CCN(CC2CC2)C(C23CC4CC(CC(C4)C2)C3)C1 ; read by: cytopathic effect ; result: >162 µM
C#Cc1c(C(N)=O)ncn1[C@@H]1O[C@H](CO)[C@@H](O)[C@H]1O ; strain or isolate: B/Singapore/222/79 ; read by: plaque count ; result: 0.44 µg/mL
Nc1ncnc2c1ncn2[C@@H]1C[C@@H](O)[C@H](CO)O1 ; result: >100 µM
Nc1ccc(S(=O)(=O)O)c2ccccc12 ; strain or isolate: Singapore/222/79 ; read by: cytopathic effect ; result: >200 µM
NC(=O)c1ncn([C@@H]2O[C@H](CO)[C@@H](O)[C@H]2O)n1 ; strain or isolate: B/Singapore/222/79 ; result: 30 µM
C1CCN(CCN2CCCCC2C23CC4CC(CC(C4)C2)C3)CC1 ; read by: cytopathic effect ; result: >561 µM
C#Cc1c(C(N)=O)ncn1[C@@H]1O[C@H](CO)[C@@H](O)[C@H]1O ; strain or isolate: B/Singapore ; read by: plaque count ; result: 0.85 µg/mL
CC(C)CCCC(C)C1CCC2C3CC=C4CC(OC(=O)Nc5ccc(S(=O)(=O)O)c6ccccc56)CCC4(C)C3CCC12C ; strain or isolate: Singapore/222/79 ; read by: cytopathic effect ; result: >100 µM
NC(=O)c1nc(F)c[nH]c1=O ; strain or isolate: MIE/1/93 ; read by: plaque count ; result: 0.039 µg/mL
NC(=O)c1ncn([C@@H]2O[C@H](CO)[C@@H](O)[C@H]2O)n1 ; strain or isolate: B/Singapore/222/79 ; read by: plaque count ; result: 3.6 µg/mL

A second listing of 3 rows from above:

C1CCN(CCN2CCCCC2C23CC4CC(CC(C4)C2)C3)CC1 ; read by: cytopathic effect ; result: >561 µM
C#Cc1c(C(N)=O)ncn1[C@@H]1O[C@H](CO)[C@@H](O)[C@H]1O ; strain or isolate: B/Singapore/222/79 ; read by: plaque count ; result: 0.44 µg/mL
NC(=O)c1ncn([C@@H]2O[C@H](CO)[C@@H](O)[C@H]2O)n1 ; strain or isolate: B/Singapore/222/79 ; read by: plaque count ; result: 3.6 µg/mL

ECn is the concentration giving n% inhibition of infection, replication or growth.